# Laboratory results published in patent US6831086B1, “Process for the inactivation of viruses with the aid of acridine derivatives” (ZLB Behring GmbH, priority 1994, dated 2004).
# Legend:
# PI3 virus = assay: Inactivation of PI3 virus, infectiousness titration; assay type: cell-based, Bovine parainfluenza 3 virus; conditions: 2 hours
# BPV = assay: Inactivation of BPV, infectiousness titration; assay type: cell-based, Bovine parvovirus; conditions: for Titer reduction: Horse serum + BPV, Acriflavine 0.001 mg/ml; for Virus titer found: BPV
# PPV = assay: Inactivation of PPV, infectiousness titration; assay type: cell-based, Porcine parvovirus; conditions: Acriflavine 0.001 mg/ml, 37° C.
# IBRV = assay: Inactivation of IBRV, infectiousness titration; assay type: cell-based, Infectious bovine rhinotracheitis virus
# BVDV = assay: Inactivation of BVDV, infectiousness titration; assay type: cell-based, Bovine viral diarrhoea virus; conditions: for Treatment titer: Acriflavine 0.001 mg/ml; for Inactivation of BVDV, in words: Table 3, 37° C.
# CPV = assay: Inactivation of CPV in protein solutions, infectiousness titration; assay type: cell-based, Canine parvovirus; conditions: Acriflavine 0.001 mg/ml, 37° C.
substance,measurement,setting,value
"3,6-diamino-10-methylacridinium, chloride and 3,6-acridineidiamine [Acriflavine]",Virus inactivation,"PI3 virus; PI3V, Acriflavine 0.001 mg/ml, 37° C., EME medium",2.4 log10/ml
same,"Inactivation of PI3V, in words","PI3 virus; Table 3, 37° C.",inactivated
same,Titer reduction,"BPV; 37° C., 0 h",0 log10/ml
same,Titer reduction,"BPV; 37° C., 1 h",≧3.7 log10/ml
same,Titer reduction,"BPV; 37° C., 2 h",≧3.6 log10/ml
same,Treatment titer,"PPV; Beriplex + PPV, 0 h",4.8 log10/ml
same,Treatment titer,"PPV; Beriplex + PPV, 1 h",2.0 log10/ml
same,Treatment titer,"PPV; Beriplex + PPV, 2 h",≦1.5 log10/ml
same,Treatment titer,"PPV; Haemate + PPV, 0 h",5.5 log10/ml
same,Treatment titer,"PPV; Haemate + PPV, 1 h",3.3 log10/ml
same,Treatment titer,"PPV; Haemate + PPV, 2 h",1.9 log10/ml
same,Treatment titer,"PPV; Venimmun + PPV, 0 h",4.0 log10/ml
same,Treatment titer,"PPV; Venimmun + PPV, 1 h",≦1.5 log10/ml
same,Treatment titer,"PPV; Venimmun + PPV, 2 h",≦1.5 log10/ml
same,"Inactivation of IBRV, in words",IBRV,inactivated
same,Virus titer found,"IBRV; 37° C., 2 hours",1.8 log10/ml
same,Treatment titer,"BVDV; Beriate + BVDV, 37° C., 0 h",5.0 log10/ml
same,Treatment titer,"BVDV; Beriate + BVDV, 37° C., 1 h",≦1.5 log10/ml
same,Treatment titer,"BVDV; Beriate + BVDV, 37° C., 2 h",≦1.5 log10/ml
same,Treatment titer,"BVDV; Horse serum + BVDV, 37° C., 0 h",5.0 log10/ml
same,Treatment titer,"BVDV; Horse serum + BVDV, 37° C., 1 h",≦1.5 log10/ml
same,Treatment titer,"BVDV; Horse serum + BVDV, 37° C., 2 h",≦1.5 log10/ml
same,"Inactivation of BVDV, in words",BVDV; 2 hours,inactivated
same,Treatment titer,"BVDV; Venimmun + BVDV, 37° C., 0 h",6.4 log10/ml
same,Treatment titer,"BVDV; Venimmun + BVDV, 37° C., 1 h",4.5 log10/ml
same,Treatment titer,"BVDV; Venimmun + BVDV, 37° C., 2 h",1.9 log10/ml
same,Treatment titer,"CPV; FCS + CPV, 0 h",6.6 log10/ml
same,Treatment titer,"CPV; FCS + CPV, 1 h",4.9 log10/ml
same,Treatment titer,"CPV; FCS + CPV, 2 h",4.0 log10/ml
same,Treatment titer,"CPV; Venimmun + CPV, 0 h",6.6 log10/ml
same,Treatment titer,"CPV; Venimmun + CPV, 1 h",4.8 log10/ml
same,Treatment titer,"CPV; Venimmun + CPV, 2 h",3.9 log10/ml
Benzalkonium chloride [BACI],Virus titer found,"BPV; BACI 0.01 mg/ml, 37° C., 2 hours, EME medium",5.9 log10/ml
same,Virus titer found,"BPV; BACI 0.01 mg/ml, 1 hour, 45° C.",5.2 log10/ml
same,Virus titer found,"BPV; BACI 0.01 mg/ml, 2 hours, 45° C.",4.6 log10/ml
same,Virus titer found,"BPV; BACI 0.05 mg/ml, 1 hour, 45° C.",5.2 log10/ml
same,Virus titer found,"BPV; BACI 0.05 mg/ml, 2 hours, 45° C.",4.6 log10/ml
same,"Inactivation of IBRV, in words","IBRV; Table 3, 37° C., 2 hours",inactivated
same,Virus inactivation,"BVDV; BVDV, BACI 0.01 mg/ml, 37° C., 2 hours, EME medium",3.9 log10/ml
same,"Inactivation of BVDV, in words",BVDV; 2 hours,inactivated

# Where two headings read alike, the source gives them in different places.
